PSTVd loop 15 mutant pool in Nicotiana benthamiana

The measurements come from Wu et al. 2024 (doi:10.1371/journal.ppat.1012142).

Region: loop 15 of PSTVd (intermediate strain), upper and lower strand joined, each 5' to 3', the first 7 letters being the upper strand, closing pairs included. Wild type: GGAAACCGCUACUAC. Varied positions (N): GGAAACCGNNNNNNC.

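Three N. benthamiana plants were inoculated with the whole mutant pool. Progeny were sequenced from the inoculated region (day 5), the margin of the inoculated leaf (day 10) and systemic leaves (day 12).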

Numbers give reads per thousand; 0 = not seen among the reads, higher = more abundant. Each site shows the three plants. "Pool" is the share in the plasmid pool used as inoculum, on the same scale. The inoculated region was read from the minus strand, the other sites from the plus strand. With 43,870-66,106 reads a sample, very low values are single reads.

{"sequence": "GGAAACCGAAAGCCC", "pool": "0.256", "inoculated region": "0.115 0.0964 0.0571", "leaf margin": "0.0323 0 0.0200", "systemic leaves": "0 0 0"}
{"sequence": "GGAAACCGAAAGCGC", "pool": "0.272", "inoculated region": "0.0655 0.0964 0.114", "leaf margin": "0 0 0", "systemic leaves": "0 0 0"}
{"sequence": "GGAAACCGAAAGCUC", "pool": "0.288", "inoculated region": "0.0655 0.0482 0.0571", "leaf margin": "0.0162 0 0", "systemic leaves": "0 0 0"}
{"sequence": "GGAAACCGAAAGGAC", "pool": "0.320", "inoculated region": "0.328 0.273 0.381", "leaf margin": "0.129 0.156 0.0601", "systemic leaves": "0.0161 0.0303 0.0456"}
{"sequence": "GGAAACCGAAAGGCC", "pool": "0.112", "inoculated region": "0.0819 0.0964 0.0571", "leaf margin": "0.0162 0 0", "systemic leaves": "0 0 0"}
{"sequence": "GGAAACCGAAAGGGC", "pool": "0.160", "inoculated region": "0.131 0.0482 0.0571", "leaf margin": "0 0 0", "systemic leaves": "0.0161 0 0"}
{"sequence": "GGAAACCGAAAGGUC", "pool": "0.256", "inoculated region": "0.197 0.305 0.286", "leaf margin": "0.113 0.0891 0.160", "systemic leaves": "0.0966 0 0"}
{"sequence": "GGAAACCGAAAGUAC", "pool": "0.240", "inoculated region": "0.360 0.177 0.419", "leaf margin": "0.0970 0.0445 0.0601", "systemic leaves": "0.113 0 0"}
{"sequence": "GGAAACCGAAAGUCC", "pool": "0.224", "inoculated region": "0.344 0.241 0.228", "leaf margin": "0.178 0.111 0.100", "systemic leaves": "0.0322 0.0605 0.0684"}
{"sequence": "GGAAACCGAAAGUGC", "pool": "0.256", "inoculated region": "0.311 0.209 0.419", "leaf margin": "0.0485 0.0891 0.0601", "systemic leaves": "0.0483 0.0151 0.160"}
{"sequence": "GGAAACCGAAAGUUC", "pool": "0.336", "inoculated region": "0.344 0.241 0.400", "leaf margin": "0.194 0.111 0.100", "systemic leaves": "0 0.0303 0"}
{"sequence": "GGAAACCGAAAUAAC", "pool": "0.336", "inoculated region": "0.246 0.321 0.324", "leaf margin": "0.0647 0.156 0.140", "systemic leaves": "0.0644 0 0"}
{"sequence": "GGAAACCGAAAUACC", "pool": "0.208", "inoculated region": "0.131 0.161 0.0952", "leaf margin": "0 0.0223 0", "systemic leaves": "0 0 0"}
{"sequence": "GGAAACCGAAAUAGC", "pool": "0.176", "inoculated region": "0.0983 0.0803 0.0762", "leaf margin": "0 0 0", "systemic leaves": "0 0 0"}
{"sequence": "GGAAACCGAAAUAUC", "pool": "0.272", "inoculated region": "0.377 0.402 0.419", "leaf margin": "0.146 0.0891 0.100", "systemic leaves": "0.0483 0 0"}
{"sequence": "GGAAACCGAAAUCAC", "pool": "0.272", "inoculated region": "0.262 0.386 0.343", "leaf margin": "0.0970 0.0891 0.120", "systemic leaves": "0.0644 0.0756 0.0684"}
{"sequence": "GGAAACCGAAAUCCC", "pool": "0.240", "inoculated region": "0.147 0.0803 0.0952", "leaf margin": "0 0 0.0401", "systemic leaves": "0 0 0"}
{"sequence": "GGAAACCGAAAUCGC", "pool": "0.208", "inoculated region": "0.0655 0.0643 0.0571", "leaf margin": "0 0 0.0401", "systemic leaves": "0 0 0"}
{"sequence": "GGAAACCGAAAUCUC", "pool": "0.272", "inoculated region": "0.262 0.0643 0.171", "leaf margin": "0 0.0223 0", "systemic leaves": "0 0 0"}
{"sequence": "GGAAACCGAAAUGAC", "pool": "0.192", "inoculated region": "0.115 0.0803 0.0571", "leaf margin": "0.0162 0 0.0200", "systemic leaves": "0.0161 0 0"}
{"sequence": "GGAAACCGAAAUGCC", "pool": "0.176", "inoculated region": "0.0328 0.0321 0.133", "leaf margin": "0 0 0", "systemic leaves": "0 0 0"}
{"sequence": "GGAAACCGAAAUGGC", "pool": "0.256", "inoculated region": "0.180 0.289 0.267", "leaf margin": "0.0323 0 0.0401", "systemic leaves": "0.0161 0 0"}
{"sequence": "GGAAACCGAAAUGUC", "pool": "0.192", "inoculated region": "0.0983 0.193 0.114", "leaf margin": "0 0.0223 0.0200", "systemic leaves": "0.0161 0 0.0228"}
{"sequence": "GGAAACCGAAAUUAC", "pool": "0.224", "inoculated region": "1.21 1.27 0.762", "leaf margin": "0.146 0.178 0.120", "systemic leaves": "0.0322 0.151 0.0912"}
{"sequence": "GGAAACCGAAAUUCC", "pool": "0.288", "inoculated region": "0.0655 0.0643 0.171", "leaf margin": "0 0 0.0200", "systemic leaves": "0.0161 0 0"}
{"sequence": "GGAAACCGAAAUUGC", "pool": "0.256", "inoculated region": "0.213 0.241 0.495", "leaf margin": "0.194 0.134 0.180", "systemic leaves": "0.0483 0 0"}
{"sequence": "GGAAACCGAAAUUUC", "pool": "0.224", "inoculated region": "0.409 0.546 0.514", "leaf margin": "0.0970 0.111 0.180", "systemic leaves": "0.0322 0.0605 0.0912"}
{"sequence": "GGAAACCGAACAAAC", "pool": "0.288", "inoculated region": "0.0655 0.0964 0.0952", "leaf margin": "0 0 0.0200", "systemic leaves": "0 0 0"}
{"sequence": "GGAAACCGAACAACC", "pool": "0.144", "inoculated region": "0.0819 0.161 0.0762", "leaf margin": "0.0162 0 0.0200", "systemic leaves": "0 0 0"}
{"sequence": "GGAAACCGAACAAGC", "pool": "0.192", "inoculated region": "0.0819 0.0803 0.0952", "leaf margin": "0 0.0223 0", "systemic leaves": "0 0 0"}

3 of these entries, quoted again:

{"sequence": "GGAAACCGAACAAAC", "pool": "0.288", "inoculated region": "0.0655 0.0964 0.0952", "leaf margin": "0 0 0.0200", "systemic leaves": "0 0 0"}
{"sequence": "GGAAACCGAAAUUAC", "pool": "0.224", "inoculated region": "1.21 1.27 0.762", "leaf margin": "0.146 0.178 0.120", "systemic leaves": "0.0322 0.151 0.0912"}
{"sequence": "GGAAACCGAAAUUUC", "pool": "0.224", "inoculated region": "0.409 0.546 0.514", "leaf margin": "0.0970 0.111 0.180", "systemic leaves": "0.0322 0.0605 0.0912"}

The authors trace changes outside the varied positions to PCR and sequencing errors or to mutation in the plant; presence does not show that a variant is infectious alone. Wild type was 33.9 per thousand in the pool and the most common sequence in every sample (inoculated region 202, 200, 159; leaf margin 724, 746, 710; systemic leaves 856, 883, 880).